Pooled drug test results. Numbers come from NIAID ChemDB, via PubChem.

All rows: whole-cell or culture tests; organism: Coxsackie virus; cell line: VERO; read-out: EC50

An empty or dashed field is not shown.

| smiles | strain or isolate | method | value |
|---|---|---|---|
| CC1(C)[C@@H](CO)CC[C@@]1(C)Cn1cc(I)c(=O)[nH]c1=O | TYPE B4 | cytopathic effect | >400 µg/mL |
| NC(=S)c1cncc([C@H]2O[C@H](CO)[C@@H](O)[C@@H]2O)c1 | TYPE B4 | cytopathic effect | ≥100 µg/mL |
| Nc1nccc2nnn([C@@H]3O[C@H](CO)[C@@H](O)[C@H]3O)c12 | B1 | plaque count | >398 µM |
| Brc1ccc(Cn2ccc3nc(-c4ccccc4Br)nc-3c2)cc1 | NANCY (TYPE B3) | cytopathic effect | 12 µg/mL |
| N#Cc1cncc([C@@H]2O[C@H](CO)[C@@H](O)[C@@H]2O)c1 | TYPE B4 | cytopathic effect | ≥100 µg/mL |
| Nc1nccc2c1ncn2[C@H]1C[C@H](O)[C@@H](CO)O1 | B1 | plaque count | >397 µM |
| CC1(C)[C@@H](CO)CC[C@@]1(C)Cn1cnc2c(Cl)ncnc21 | TYPE B4 | cytopathic effect | >400 µg/mL |
| CC1(C)[C@@H](CCO)C[C@H]1n1cnc2c(N)ncnc21 | TYPE B4 | cytopathic effect | >400 µg/mL |
| Nc1ncnc2c1ncn2[C@@H]1O[C@H](C=O)C[C@H]1O | Strain B4 | cytopathic effect | >200 µg/mL |
| OC[C@H]1O[C@@H](n2nnc3ccnc(Cl)c32)C[C@@H]1O | B1 | plaque count | >368 µM |
| OC[C@H]1O[C@H](c2cncc(Br)c2)[C@@H](O)[C@H]1O | TYPE B4 | cytopathic effect | ≥100 µg/mL |
| CC1(C)[C@@H](CCO)C[C@H]1n1cnc2c(=O)[nH]c(N)nc21 | TYPE B4 | cytopathic effect | >400 µg/mL |
| OC[C@H]1O[C@@H](c2cncc(Br)c2)[C@@H](O)[C@H]1O | TYPE B4 | cytopathic effect | ≥100 µg/mL |
| Cc1cc(CCCCCCCOc2ccc(C3=NCCO3)cc2)on1 | TYPE B2 | cytopathic effect | 14.1 µM |
| Nc1nccc2nn([C@@H]3O[C@H](CO)[C@@H](O)[C@H]3O)nc12 | B1 | plaque count | >398 µM |
| Nc1ncnc2c1ncn2C[C@H](O)CO | Strain B4 | cytopathic effect | >400 µg/mL |
| c1ccc(-c2nc3ccn(CC4CCCCC4)cc-3n2)cc1 | NANCY (TYPE B3) | cytopathic effect | 6.5 µg/mL |
| Nc1nccc2nn([C@H]3C[C@H](O)[C@@H](CO)O3)nc12 | B1 | plaque count | >396 µM |
| Nc1ncnc2c1ncn2[C@H]1C[C@H](O)[C@@H](/C=N/O)O1 | Strain B4 | cytopathic effect | >100 µg/mL |
| Nc1ncnc2c1ncn2[C@H]1OC[C@@H](CO)C1O | TYPE B4 | cytopathic effect | >80 µg/mL |
| Nc1nccc2c1ncn2[C@@H]1O[C@H](CO)[C@@H](O)[C@H]1O | B1 | plaque count | >125 µM |
| N#Cc1cncc([C@@H]2O[C@H](CO)[C@H](O)[C@@H]2O)c1 | TYPE B4 | cytopathic effect | ≥100 µg/mL |
| CC1(C)[C@@H](CCO)C[C@H]1n1nnc2c(N)ncnc21 | TYPE B4 | cytopathic effect | >100 µg/mL |
| CCOC(=O)c1ccc(OCCCCC(=O)c2ccc(C)s2)cc1 | TYPE B2 | cytopathic effect | >26.72 µM |
| Nc1nc2c(ncn2[C@H]2OC[C@@H](CO)C2O)c(=O)[nH]1 | TYPE B4 | cytopathic effect | >16 µg/mL |
| Cn1cc(CCCCOc2ccc(C3=NCCO3)cc2)cc1C=O | - | plaque count | >280 µM |
| Cc1ccc(C(=O)CCCCOc2ccc(C3=NCC(C)O3)cc2Cl)s1 | TYPE B2 | cytopathic effect | 4.51 µM |
| CCON=C[C@H]1O[C@@H](n2cnc3c(N)ncnc32)[C@H](O)[C@@H]1O | Strain B4 | cytopathic effect | >100 µg/mL |
| c1ccc(Cn2ccc3nc(-c4ccccc4)nc-3c2)cc1 | NANCY (TYPE B3) | cytopathic effect | 6 µg/mL |
| Nc1nccc2c1ncn2[C@H]1CC[C@@H](CO)O1 | B1 | plaque count | >429 µM |
| NC(=O)c1cncc([C@H]2O[C@H](CO)[C@@H](O)[C@@H]2O)c1 | TYPE B4 | cytopathic effect | ≥100 µg/mL |
| Cc1cn([C@@H]2OC[C@H](CO)[C@H]2N=[N+]=[N-])c(=O)[nH]c1=O | TYPE B4 | cytopathic effect | >80 µg/mL |
| NC(=O)c1cncc([C@@H]2O[C@H](CO)[C@@H](O)[C@@H]2O)c1 | TYPE B4 | cytopathic effect | ≥100 µg/mL |
| Cc1ccc(C(=O)CCCCOc2ccc(C3=NC(C)(C)CO3)cc2)s1 | TYPE B2 | cytopathic effect | 19.67 µM |
| OC[C@H]1O[C@@H](n2nnc3c(Cl)nccc32)C[C@@H]1O | B1 | plaque count | >368 µM |
| CC1(C)[C@@H](CO)CC[C@@]1(C)Cn1nnc2c(Cl)ncnc21 | TYPE B4 | cytopathic effect | >400 µg/mL |

Repeating the first 2 entries:

CC1(C)[C@@H](CO)CC[C@@]1(C)Cn1cc(I)c(=O)[nH]c1=O ; strain or isolate: TYPE B4 ; method: cytopathic effect ; value: >400 µg/mL
NC(=S)c1cncc([C@H]2O[C@H](CO)[C@@H](O)[C@@H]2O)c1 ; strain or isolate: TYPE B4 ; method: cytopathic effect ; value: ≥100 µg/mL

ECn: concentration that inhibits the pathogen or its effect by n%. Rows are shuffled and stem from different studies.